# Experimental data as given in patent US7309708B2, “Hepatitis C virus inhibitors” (priority 2003, dated 2007).
# Protein sequences, listed by entry. Tags and fused reporters are not part of them. Residues count along the entry.
# UniProt P27958, 1027-1657 limits assumed: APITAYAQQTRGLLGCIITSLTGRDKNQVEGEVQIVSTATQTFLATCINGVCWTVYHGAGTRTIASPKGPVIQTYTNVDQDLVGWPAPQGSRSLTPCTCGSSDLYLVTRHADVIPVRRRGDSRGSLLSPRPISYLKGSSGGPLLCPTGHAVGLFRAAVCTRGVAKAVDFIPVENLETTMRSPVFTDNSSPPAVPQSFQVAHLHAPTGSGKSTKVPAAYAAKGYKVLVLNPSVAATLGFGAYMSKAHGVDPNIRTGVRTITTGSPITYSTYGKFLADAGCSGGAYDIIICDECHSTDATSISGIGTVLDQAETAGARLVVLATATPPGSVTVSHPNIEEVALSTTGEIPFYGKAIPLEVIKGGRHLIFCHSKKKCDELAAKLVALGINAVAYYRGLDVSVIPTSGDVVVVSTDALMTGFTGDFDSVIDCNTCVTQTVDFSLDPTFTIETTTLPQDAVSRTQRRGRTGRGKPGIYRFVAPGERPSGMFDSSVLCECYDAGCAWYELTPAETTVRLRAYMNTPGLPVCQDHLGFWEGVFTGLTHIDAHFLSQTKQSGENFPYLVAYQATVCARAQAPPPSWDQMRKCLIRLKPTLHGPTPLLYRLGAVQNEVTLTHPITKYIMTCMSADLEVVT
# Experiments:
# [1] = target: HCV NS3/4A protease complex (BMS strain) (UniProt P27958); assay: Recombinant HCV NS3/4A protease complex FRET peptide assay (BMS strain); type: biochemical, Hepatitis C virus (genotype 1a; details: read-out: IC50 (uuM); NS3/4A BMS strain; activity range class
# [2] = tested on: HCV replicon (strain 1b) in Huh7 cells; details: Huh7 cells expressing HCV replicon, 4 days; activity range class
smiles,measurement,setting,value
C=C[C@@H]1C[C@]1(NC(=O)[C@@H]1C[C@@H](Oc2nccc3cc(OC)ccc23)CN1C(=O)[C@@H](NC(=O)OC(C)(C)C)C(C)(C)C)C(=O)NS(=O)(=O)c1ccc(OC)cc1,IC50,[1],< 0.1 µM
same,EC50,[2],0.1 to 1 µM
C=C[C@@H]1C[C@]1(NC(=O)[C@@H]1C[C@@H](Oc2nccc3cc(OC)ccc23)CN1C(=O)[C@@H](NC(=O)OC(C)(C)C)C(C)(C)C)C(=O)NS(=O)(=O)c1sc2cc(Cl)ccc2c1C,IC50,[1],1 to 10 µM
C=C[C@@H]1C[C@]1(NC(=O)[C@@H]1C[C@@H](Oc2nccc3cc(OC)ccc23)CN1C(=O)[C@@H](NC(=O)OC(C)(C)C)C(C)(C)C)C(=O)NS(=O)(=O)c1ccc(C)cn1,IC50,[1],0.1 to 1 µM
same,EC50,[2],1 to 10 µM
